The source made the active and inactive calls. No cut-off for these calls is given here.
How the values were obtained:
[1] = system: B16; test: Antitumor activity against mouse B16 cells allografted in ip dosed BDF mouse assessed as increase in life span administered for 9 days
[2] = system: B16; test: Antitumor activity against mouse B16 cells allografted in BDF mouse assessed as increase in life span at 200 mg/kg, ip administered for 9 days relative to untreated control
[3] = system: B16; test: Antitumor activity against mouse B16 cells allografted in BDF mouse assessed as increase in life span at 12.5 mg/kg, ip administered for 9 days relative to untreated control
[4] = system: B16; test: Antitumor activity against mouse B16 cells allografted in BDF mouse assessed as increase in life span at 1 mg/kg, ip administered for 9 days relative to untreated control
[5] = system: B16; test: Antitumor activity against mouse B16 cells allografted in BDF mouse assessed as increase in life span at 50 mg/kg, ip administered for 9 days relative to untreated control
[6] = system: B16; test: Antitumor activity against mouse B16 cells allografted in BDF mouse assessed as increase in life span at 2 mg/kg, ip administered for 9 days relative to untreated control
[7] = system: B16; test: Antitumor activity against mouse B16 cells allografted in BDF mouse assessed as increase in life span at 8 mg/kg, ip administered for 9 days relative to untreated control; type: functional

## NS(=O)(=O)c1ccc(N(CCCl)CCCl)cc1
[1]
  Activity: inactive

## N#CC(C#N)=Cc1ccc(N(CCCl)CCCl)cc1
[2]
  T/C: 108%

## ClCCN(CCCl)c1ccc(Oc2ccccc2)cc1
[2]
  T/C: 139%

## NC(=O)Nc1ccc(N(CCCl)CCCl)cc1
[3]
  T/C: 147%

## Nc1ccc(N(CCCl)CCCl)cc1
[4]
  T/C: 124%

## Cc1ccc(N(CCCl)CCCl)cc1C
[5]
  T/C: 167%

## Cc1cc(N(CCCl)CCCl)ccc1N
[6]
  T/C: 142%

## Oc1ccc(N(CCCl)CCCl)cc1
[7]
  T/C: 147%
